Results reported in patent publication EP3529371B1.

Key:
Test in all cases: cell-based or functional assay
[1] = target: H6tHAtev1V(2-76)LS K59R (Photinus pyralis) (UniProt P63026)
[2] = target: H6tHAtev1V(2-76)LS M46I (Photinus pyralis) (UniProt P63026)
[3] = target: H6tHAtev1V(2-94)LS (Photinus pyralis)
[4] = target: H6tHAtev1S(146-206)LS (Photinus pyralis)

## BoNT/D (recombinant, activated full-length) (from UniProt P19321 2-1276) (enzyme)
[1]
  EC50 of substrate cleavage, endopeptidase assay, JDZ-buffer, 1 h 37°C: 0.6 nM
[2]
  EC50 of substrate cleavage, endopeptidase assay, JDZ-buffer, 1 h 37°C: > 1000 nM
  fold increase of EC50 relative to generic H6tHAtev1V(2-94)LS: > 5000 fold

## LC/T 1-438 fused to a C-terminal 6xHN-tag
[3]
  EC50 of substrate cleavage, endopeptidase assay, PBS pH 7.4, 1 h 37°C: 83 nM

## LC/B1 1-436 fused to a C-terminal 6xHN-tag
[3]
  EC50 of substrate cleavage, endopeptidase assay, PBS pH 7.4, 1 h 37°C: 80 nM

## BoNT/B1 (recombinant, activated full-length) (from UniProt B1INP5 2-1291)
[3]
  EC50 of cleavage of generic substrate with reporter luc, JDZ-buffer, 1 h 37°C: 0.07 nM
  EC50 of substrate cleavage, endopeptidase assay, JDZ-buffer, 1 h 37°C: 0.07 nM

## LC/G 1-435 fused to a C-terminal 6xHN-tag
[3]
  EC50 of substrate cleavage, endopeptidase assay, PBS pH 7.4, 1 h 37°C: > 10000 nM

## BoNT/C (recombinant, activated full-length) (from UniProt P18640 2-1291)
[4]
  EC50 of cleavage of generic substrate with reporter luc, JDZ-buffer, 1 h 37°C: 10 nM
  EC50 of substrate cleavage, endopeptidase assay, JDZ-buffer, 1 h 37°C: 10 nM

## BoNT/D (recombinant, activated full-length) (from UniProt P19321 2-1276)
[3]
  EC50 of cleavage of generic substrate with reporter luc, JDZ-buffer, 1 h 37°C: 0.2 nM
  EC50 of substrate cleavage, endopeptidase assay, JDZ-buffer, 1 h 37°C: 0.2 nM

## BoNT/E1 (recombinant, activated full-length) (from UniProt Q00496 2-1251)
[4]
  EC50 of cleavage of generic substrate with reporter luc, JDZ-buffer, 1 h 37°C: 0.2 nM
  EC50 of substrate cleavage, endopeptidase assay, JDZ-buffer, 1 h 37°C: 0.2 nM

## LC/F1 1-428 fused to a C-terminal 6xHN-tag
[3]
  EC50 of substrate cleavage, endopeptidase assay, PBS pH 7.4, 1 h 37°C: 2.3 nM

## BoNT/A1 (recombinant, activated full-length) (from UniProt P0DPI1 2-1296)
[4]
  EC50 of cleavage of generic substrate with reporter luc, JDZ-buffer, 1 h 37°C: 0.03 nM
  EC50 of substrate cleavage, endopeptidase assay, JDZ-buffer, 1 h 37°C: 0.03 nM

## BoNT/F1 (recombinant, activated full-length) (enzyme)
[1]
  EC50 of substrate cleavage, endopeptidase assay, JDZ-buffer, 1 h 37°C: 6 nM
[2]
  EC50 of substrate cleavage, endopeptidase assay, JDZ-buffer, 1 h 37°C: 0.2 nM

## LC/D 1-436 fused to a C-terminal 6xHN-tag
[3]
  EC50 of substrate cleavage, endopeptidase assay, PBS pH 7.4, 1 h 37°C: 0.6 nM
